# Tested on: Escherichia coli expressing NDM-1 (CLB30005, CLB30016)
# Conditions: NDM-1 strain, with imipenem 1 μg/ml, 95% inhibition of growth
smiles,measurement,value
NC[C@H](O)CNS(=O)(=O)c1ccc(-c2ccnc(N)c2)c(-c2nn[nH]n2)c1S(N)(=O)=O,Escherichia coli MITC95,0.1953 µM

# Reference: patent publication US10221163B2 (priority 2015, dated 2019)
